# According to publication PMC8672173:
# Biological target: CRP (cAMP receptor protein) (UniProt O34015)
# Test: EMSA
# Conditions: 0.2 mM cAMP, CRP 0, 0.35-4.2 uM, herring sperm DNA 12.5 ug/ml; recombinant protein; label: 32P end label (T4 PNK); probe letters rebuilt from the primers and the genome
sequence,measurement,value
GCCCGAAGCTTCATGTTCGAATCCTTTAGTGGTAAAAAAGTAAACGGTTGCGTAAACGATTGGCGGCGATTATAGAGTTATCAAAAAACAAATTCCAGACACAATTCTGACTGTACGCGGGTTTTCTAACCAAAAAGGGAATCTGTCGATCAGAAGATAAGTCAATTGCTCAATACCAACAGAATGTTGCGATCAAGTTCGAATAGGGAAGATTTTTTGAGGATAAAAAAACGCCACCTCAAGTGAGATGGCGGTGAATCATATCGACCAAATTTGGTCGTCAATAAATTCCAATTTAGGGGTGAACAAAACTTGTTCGAGACGCAAAAGTTGCGTATCAGTAGCCGAAGCTACGAGGGTATGCAAAGTTACCGGTGTACATAGAGTGTTGGTTCCAGAACATTGCAGACGATAAACCTTTATTCATAACTATCACCATTAAAATCAAAACTGTTTACTTGATTTCTCGGTTCCATGGAGGCGATAAATCGGACTCATCCTTTGAGCGTTTTCTCTTCGCTAGCGAAGCTGTACACAAATATACCACCAAGAAATTAAATTACAACACTTAAGGTGATTAAAATCACAAAAATCATTTAAATTGATCTTTGTCAGCATTTTTTAGTAATTTAATTACAACTTTATTAAGAAAAATTACAGTTAAAGTGCATGAAGATGCATTTGCCTACCTCAGTCACGTTACGTCTTCTTATCATTCCTGACGCTAGCCGATGATCAAAACCCGTTTTCCTGCCACTTTTGACCTACACCCTGCCCCTGCACAGTGATATGCTGTGCAACGAAAGTACCTACCTGTTACAGGCAAATTCTCTGCCACGACCCAGCTCTGGAGAGAGGATACACGGGAAAAATTACAGTAAGGAGTCATCTGTGGAATTCGCAGCC (double strand) [vcdRP promoter fragment],binding result,binds

# For at least one entry, the source does not settle the construct or the ends of the probe.
